Test results from paper PMC10042849.

By UniProt entry, the sequences of proteins in these tests, tags left out. Residues count along the entry.
UniProt T1WGN1, 43-843 E186L limits assumed: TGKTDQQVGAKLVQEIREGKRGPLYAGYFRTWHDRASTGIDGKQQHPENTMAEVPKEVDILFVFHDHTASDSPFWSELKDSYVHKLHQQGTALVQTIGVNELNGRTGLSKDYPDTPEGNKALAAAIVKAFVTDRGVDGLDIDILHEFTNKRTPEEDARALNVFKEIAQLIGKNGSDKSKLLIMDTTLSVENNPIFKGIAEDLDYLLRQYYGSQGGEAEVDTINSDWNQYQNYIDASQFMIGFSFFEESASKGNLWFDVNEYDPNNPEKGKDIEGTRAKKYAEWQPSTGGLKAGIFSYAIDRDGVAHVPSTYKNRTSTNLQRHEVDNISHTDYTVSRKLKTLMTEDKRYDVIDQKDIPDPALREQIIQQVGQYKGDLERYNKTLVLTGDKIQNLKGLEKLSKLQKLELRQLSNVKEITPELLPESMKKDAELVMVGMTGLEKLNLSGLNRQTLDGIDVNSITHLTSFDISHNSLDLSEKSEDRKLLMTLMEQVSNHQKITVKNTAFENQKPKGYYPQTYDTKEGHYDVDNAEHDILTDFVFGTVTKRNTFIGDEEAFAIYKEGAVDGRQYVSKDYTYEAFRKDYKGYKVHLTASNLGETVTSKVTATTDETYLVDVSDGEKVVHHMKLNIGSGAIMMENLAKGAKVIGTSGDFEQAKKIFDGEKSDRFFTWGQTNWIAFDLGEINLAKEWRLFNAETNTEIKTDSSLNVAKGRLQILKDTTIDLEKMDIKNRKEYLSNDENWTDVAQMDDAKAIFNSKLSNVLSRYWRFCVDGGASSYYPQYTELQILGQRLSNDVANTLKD

Molecular target: EndoS2 (Streptococcus pyogenes, UniProt T1WGN1, E186L)

## CC(=O)N[C@@H]1[C@@H](O)[C@H](O[C@@H]2O[C@H](CO)[C@@H](O[C@@H]3O[C@H](CO[C@H]4O[C@H](CO)[C@@H](O)[C@H](O)[C@@H]4O[C@@H]4O[C@H](CO)[C@@H](O[C@@H]5O[C@H](CO)[C@H](O)[C@H](O)[C@H]5O)[C@H](O)[C@H]4NC(C)=O)[C@@H](O)[C@H](O[C@H]4O[C@H](CO)[C@@H](O)[C@H](O)[C@@H]4O[C@@H]4O[C@H](CO)[C@@H](O[C@@H]5O[C@H](CO)[C@H](O)[C@H](O)[C@H]5O)[C@H](O)[C@H]4NC(C)=O)[C@@H]3O)[C@H](O)[C@H]2NC(C)=O)[C@@H](CO)O[C@H]1NC(=O)C[C@H](N)C(=O)O
  Kd: 107 µM

Structures were worked out from names or drawings and are uncertain.
